Source: US20060002960A1 (priority 2003, published 2006)

Tested on: mice
Details: mouse, in vivo

cholera toxin [CT] was tested, and the “TT IgG, Assay values (Elisa Units) Individual Mice” value was 49754 Elisa Units.
